The values below come from publication PMC10597343.

Protein sequences, listed by entry. Tags and fused reporters are not part of them. Lines headed by an entry give the natural chain unless they say otherwise; changes in a name come on top.
UniProt P0ACS9: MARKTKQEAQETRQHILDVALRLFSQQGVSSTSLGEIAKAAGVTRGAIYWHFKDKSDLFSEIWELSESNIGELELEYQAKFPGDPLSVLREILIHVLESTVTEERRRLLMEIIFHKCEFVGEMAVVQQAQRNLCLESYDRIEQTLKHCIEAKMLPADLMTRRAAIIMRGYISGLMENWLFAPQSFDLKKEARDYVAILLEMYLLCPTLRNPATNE

This data set has as its target AcrR (Escherichia coli) (UniProt P0ACS9). The data set is described as follows: EMSA. The settings on record: AcrR up to 1 uM; EMSA with LightShift Chemiluminescent EMSA Kit, AcrR 0, 0.4 and 1 uM; pH and temperature not stated; recombinant protein; probe letters rebuilt from the primers and the genome. (A gel shift assay detects complexes by their altered migration in electrophoresis.)

For at least one entry, the source does not settle the construct or the ends of the probe. No signal at the amounts used counts as a negative.

Regarding “CGCGGATTACGGTGCTACCTCTGACGTTAGGCGAAAATATCAACGCCGCTGTTGCCTGTTACACGCCCTTGTAAAGAGACGGGAACCGGAAGCGTATCGTCGTCTTCCCCCGCCAGAGGTTCATGGTTTGCTGTGCGTTGGCTTTGCTGTTGCTGGGAAGCGGCCTGCTGCTGACCACTAAAGCTTTCGCCACTGATGTTGCTTTGCCCTAACTGAATGCCACTTTCGGCCAGCTGCGTGCGCAGTACCGGCAGCGCTGCTTCCAGGGCGGCGCGTACATGCTGATGCGGTGAAACCATCTGGATTTGCGCCTGGTTATCATCCACTTTGAGGGAGATTTGCAC (double strand) [fliLMNOPQRp]”, the binding result is listed as “no binding”.

As for “CGCTGAAGCGGTAAGGAATATTCATTTGCGTCAGTTGGCTGACAATTGCGCCACCATCCTGATCGGAAAGATTGCTGAATAATGTGCGGTAGTCGGGGGCTTTCGCCCACAGGATCAGTGCGACCATGACCGCCACTGCCGCGGAACCGGCAACAATCAATGGAATTTTCGGATTCGCACGCAGGCGATTAAGCCACTCAAGAGATTTTGTCTGGGCTGCAGTCGCATTCATCGCGCACCTCGTGGCTGATTATGGACGGCGTTATTGGCAAAGTGGAACAAGACTCACTCCCGGGTCAGCAAACTCGAAAAATTGACGCTCCCATTATTTGTGCTTTCGTTTTTTTCTATCCGCCAATAAACCCGT (double strand) [fliEp]”, the binding result is listed as “no binding”.
